Anti-infective test results gathered from many reports (values: NIAID ChemDB through PubChem).

All rows: tests in culture; organism: Mycobacterium smegmatis

An empty or dashed field is not shown. Lines come from different laboratories, so protocols vary. MIC50, MIC90 and the like: level of inhibition, or share of isolates inhibited. Percent inhibition refers to the dose given; in toxicity tests it is the harm to the cells. Two numbers with a dash give a range or band. ECn: concentration that inhibits the pathogen or its effect by n%. Zones are inhibition diameters on agar.

SMILES | strain | method | read-out | dose | result
Cc1[nH]c(-c2ccc(-c3ccc(C(F)(F)F)cc3)s2)nc1-c1ccccc1 |  | broth dilution / turbidity | MIC100 |  | 20–50 µg/mL
CC(C)NCCNc1ccccc1 | ATCC 607 |  | EC50 |  | >1000 µg/mL
C[C@H]1COc2c(N3CCc4ccccc4C3C(=O)NC(C)(C)C)c(F)cc3c(=O)c(C(=O)O)cn1c23 |  | agar | MIC99 |  | 50.66 µM
CCCCN(CCCC)CCN(C)C | ATCC 607 |  | EC50 |  | >250 µg/mL
CO[C@H]1/C=C/O[C@@]2(C)Oc3c(C)c(O)c4c(O)c(c5c(c4c3C2=O)NC2(CCN(CC(C)C)CC2)N=5)=NC(=O)/C(C)=C\C=C\[C@H](C)[C@H](O)[C@@H](C)[C@@H](O)[C@@H](C)[C@H](OC(C)=O)[C@@H]1C |  | luminescence | MIC90 |  | 240 µg/mL
COc1c(N2CCC(N)C2)c(F)cc2c(=O)c(C(=O)O)cn(C3CC3)c12 | D95Y mutant |  | MIC99 |  | 2 µg/mL
CC(C)(C)CC(C)(C)NCCNC(C)(C)CC(C)(C)C | ATCC 607 |  | inhibition | 30 µg/mL | 100%
NCCCNC(=O)c1ccc(Nc2ccn(CCCCN3CCC(N)CC3)c(=O)n2)nc1 |  | turbidity | MIC |  | <8 µg/mL
COc1c(N2CC[C@@H](CN)C2)c(F)cc2c(=O)n(N)c(=O)n(C3CC3)c12 | WT |  | MIC99 |  | 5 µg/mL
C[C@H]1COc2c(N3CCN(C(=O)C4COc5ccccc5O4)CC3)c(F)cc3c(=O)c(C(=O)O)cn1c23 |  | agar | MIC99 |  | 49.07 µM
Cc1[nH]c(-c2ccc(-c3ccc(Cl)c(OC(F)(F)F)c3)o2)nc1-c1ccc(Cl)cc1 |  | broth dilution / turbidity | MIC100 |  | 20–50 µg/mL
CO[C@H]1/C=C/O[C@@]2(C)Oc3c(C)c(O)c4c(O)c(c5c(c4c3C2=O)N[C@]2(CCCN(C)CC2)N=5)=NC(=O)/C(C)=C\C=C\[C@H](C)[C@H](O)[C@@H](C)[C@@H](O)[C@@H](C)[C@H](OC(C)=O)[C@@H]1C |  | luminescence | MIC90 |  | 540 µg/mL
C[C@H](N)C(=O)NCc1ccc(Nc2ccn(CCCCN3CCC(N)CC3)c(=O)n2)nc1 |  | turbidity | MIC |  | 32–128 µg/mL
CC(=O)Nc1oc(-c2ccccc2)c(-c2ccccc2)c1C#N |  | resazurin | inhibition | 50 µg/mL | 38%
CN[C@@H]1[C@H](O[C@H]2[C@H](O[C@H]3[C@H](O)[C@@H](O)[C@H](N=C(N)N)[C@@H](O)[C@@H]3N=C(N)N)O[C@@H](C)[C@]2(O)C=O)O[C@@H](CO)[C@H](O)[C@H]1O |  | agar diffusion | zone | 10 µg | 30 mm
O=C(N[C@H](C(=O)Oc1ccc(Cl)cc1C(=O)Nc1ccc(Br)cc1)C1CCCCC1)OCc1ccccc1 | ATCC 700084 | broth dilution | MIC100 |  | 26.06 µM
NNC(=O)c1ccncc1 | mc2155 |  | MIC |  | 5 µg/mL
Cc1[nH]c(-c2ccc(-c3cccc(OC(F)(F)F)c3)o2)nc1-c1ccc(F)cc1 |  | broth dilution / turbidity | MIC100 |  | 11–20 µg/mL
N#Cc1c(NC(=O)c2ccc(Cl)cc2)oc(-c2ccccc2)c1-c1ccccc1 |  | resazurin | inhibition | 50 µg/mL | 25%
O=c1cc(-c2ccccc2)c2ccc(Cl)cc2o1 | mc2155 | resazurin | MIC90 |  | >100 µg/mL
C[C@H]1COc2c(N3CCC(O)(c4ccc(Cl)cc4)CC3)c(F)cc3c(=O)c(C(=O)O)cn1c23 |  | agar | MIC99 |  | 26.43 µM
NC1CCN(CCCCn2ccc(Nc3ccc(C(=O)NC4CNC4)cn3)nc2=O)CC1 |  | turbidity | MIC |  | <8 µg/mL
CN[C@H](CC(C)C)C(=O)N[C@H]1C(=O)N[C@@H](CC(N)=O)C(=O)N[C@H]2C(=O)N[C@H]3C(=O)N[C@H](C(=O)N[C@H](C(=O)O)c4cc(O)cc(O)c4-c4cc3ccc4O)[C@H](O)c3ccc(c(Cl)c3)Oc3cc2cc(c3O[C@@H]2O[C@H](CO)[C@@H](O)[C@H](O)[C@H]2O[C@H]2C[C@](C)(N)[C@H](O)[C@H](C)O2)Oc2ccc(cc2Cl)[C@H]1O | 2 strains |  | Median MIC |  | 8 µg/mL
COC(=O)[C@@H](N)[C@@H](OC(=O)CNC(=O)C(CS)NC(=O)CCC(NC(=O)OCc1ccccc1)C(=O)O)C(=O)OC |  | turbidity | MIC90 |  | 6 µg/mL
CC(C)NCCN(C)C(C)C | ATCC 607 |  | EC50 |  | >1000 µg/mL
CCCCCCSCCCCCCCCCCCCC#CC(=O)O | mc22389 |  | MIC99 |  | 141 µM
CNC(=O)[C@@H](C)[C@H]1C(=O)\C(=C(O)/C=C/C(C)=C/[C@@H](C)[C@@H]2O[C@]3(C)O[C@@H](CC[C@]34CO4)[C@@H]2C)C(=O)N1[C@@H]1CC[C@H](O)[C@H](C)O1 | SMR5 | resazurin | MIC90 |  | 50 µg/mL
CCCCCCCCCN(C)CCN(C)C | ATCC 607 |  | EC50 |  | <60 µg/mL
CCCCCCCCCCCCCCCC#CC(=O)OCC(O)CO | mc2155 |  | MIC99 |  | 3 µM
CCc1nc(NCCCc2ccccc2)c2cc(C)sc2n1 | mc2155 | resazurin | EC50 |  | 1.9 µM
CO[C@H]1/C=C/O[C@@]2(C)Oc3c(C)c(O)c4c(O)c(c5c(c4c3C2=O)NC2(N=5)C3CC4C[C@H]2CN(C4)C3)=NC(=O)/C(C)=C\C=C\[C@H](C)[C@H](O)[C@@H](C)[C@@H](O)[C@@H](C)[C@H](OC(C)=O)[C@@H]1C |  | luminescence | MIC90 |  | 650 µg/mL
COc1cc2c(cc1OC)CN(c1c(F)cc3c(=O)c(C(=O)O)cn4c3c1OCC4C)CC2 |  | agar | MIC99 |  | 13.75 µM
CCCNCCNC(C)C | ATCC 607 |  | EC50 |  | <125 µg/mL
Cc1c(OCC(F)(F)F)ccnc1CSc1nc2ccccc2[nH]1 | mc2155 | resazurin | MIC90 |  | >100 µM
CCCCCCCCCCCCCCCC#CC(=O)OCCO | mc22389 |  | MIC99 |  | 19.3 µM
NC1CCN(CCCCn2ccc(Nc3ccc(CNC4CCNCC4)cn3)nc2=O)CC1 |  | turbidity | MIC |  | <8 µg/mL
CC1COc2c(N3CCN(C(=O)c4ccco4)CC3)c(F)c([N+](=O)[O-])c3c(=O)c(C(=O)O)cn1c23 |  | agar | MIC99 |  | 3.21 µM
CCCCCCSCCCCCCCCCCC#CC(=O)O | mc22389 |  | MIC99 |  | >200 µM
CCCCCN(CCCCC)CCNC(C)C | ATCC 607 |  | EC50 |  | <250 µg/mL
CC(C)[C@H](NC(=O)OCc1ccccc1)C(=O)Oc1ccc(Cl)cc1C(=O)Nc1ccc([N+](=O)[O-])cc1 | ATCC 700084 | broth dilution | MIC100 |  | 30.42 µM
CCCCCCCCCCCCCC#CCC#CC(=O)O | mc22389 |  | MIC99 |  | 172.3 µM
C[C@@H]1CN(c2c(F)c(N)c3c(=O)c(C(=O)O)cn(C4CC4)c3c2F)C[C@H](C)N1 | ATCC 607 |  | MBC |  | 0.1 µg/mL
CCCCNC(=O)c1cc([N+](=O)[O-])cc([N+](=O)[O-])c1 | mc2155 | visual reading | MBC |  | 4 µg/mL
Cc1[nH]c(-c2ccc(-c3ccc(Cl)cc3)s2)nc1-c1ccccc1 |  | broth dilution / turbidity | MIC100 |  | 11–20 µg/mL
CCCCCCCCCCCCCC#CC(=O)OCCO | mc22389 |  | MIC99 |  | 42.3 µM
CCC1CNC[C@@H](CC)C12N=c1c(c3c4c5c(C)c(O)c3c(O)c1=NC(=O)/C(C)=C\C=C\[C@H](C)[C@H](O)[C@@H](C)[C@@H](O)[C@@H](C)[C@H](OC(C)=O)[C@H](C)[C@@H](OC)/C=C/O[C@@](C)(O5)C4=O)N2 |  | luminescence | MIC90 |  | 330 µg/mL
Cc1[nH]c(-c2ccc(-c3ccccc3OC(F)(F)F)o2)nc1-c1ccccc1Cl |  | broth dilution / turbidity | MIC100 |  | 11–20 µg/mL
Cc1ccc([N+](=O)[O-])cc1NC(=O)Nc1cccc(Cl)c1 |  | broth dilution / turbidity | MIC90 |  | >40 µg/mL
CCCCCCCCCCCCCCCCC#CC(=O)O | mc2651 |  | MIC99 |  | 34 µM
O=C(O)c1cn(C2CC2)c2cc(N3C[C@@H]4CCCN[C@@H]4C3)c(F)cc2c1=O | A91V mutant |  | MIC99 |  | 0.5 µg/mL
CCC(C)(C)NCCNC(C)C | ATCC 607 |  | inhibition | 250 µg/mL | 0%

8 of the rows above, restated:

CCCCCCCCCCCCCCCC#CC(=O)OCC(O)CO ; strain: mc2155 ; read-out: MIC99 ; result: 3 µM
Cc1[nH]c(-c2ccc(-c3ccccc3OC(F)(F)F)o2)nc1-c1ccccc1Cl ; method: broth dilution / turbidity ; read-out: MIC100 ; result: 11–20 µg/mL
CNC(=O)[C@@H](C)[C@H]1C(=O)\C(=C(O)/C=C/C(C)=C/[C@@H](C)[C@@H]2O[C@]3(C)O[C@@H](CC[C@]34CO4)[C@@H]2C)C(=O)N1[C@@H]1CC[C@H](O)[C@H](C)O1 ; strain: SMR5 ; method: resazurin ; read-out: MIC90 ; result: 50 µg/mL
CCCCCCSCCCCCCCCCCCCC#CC(=O)O ; strain: mc22389 ; read-out: MIC99 ; result: 141 µM
Cc1[nH]c(-c2ccc(-c3ccc(Cl)cc3)s2)nc1-c1ccccc1 ; method: broth dilution / turbidity ; read-out: MIC100 ; result: 11–20 µg/mL
CCCCCCCCCCCCCC#CC(=O)OCCO ; strain: mc22389 ; read-out: MIC99 ; result: 42.3 µM
CCCNCCNC(C)C ; strain: ATCC 607 ; read-out: EC50 ; result: <125 µg/mL
O=c1cc(-c2ccccc2)c2ccc(Cl)cc2o1 ; strain: mc2155 ; method: resazurin ; read-out: MIC90 ; result: >100 µg/mL